Measured values from several laboratories, pooled; numbers as filed in NIAID ChemDB.

Common to all: growth or infection tests; species: HIV-1; read by: p24; read-out: inhibition

Percent inhibition refers to the dose given; in toxicity tests it is the harm to the cells. Neighbouring rows are from separate reports. Blank or dashed fields: not listed here.

SMILES,dose,setting,cells,changes,strain or isolate,result
Nc1ncnc2nc[nH]c12,254 µM,,MOLT4 + MOLT-4,,IIIB,>25%
COc1cc(C[C@@]2(O)C(=O)OC[C@@H]2Cc2ccc(OC)c(OC)c2)ccc1O,0.3 µg/mL,,PBL,,IIIB,66%
Fc1ccc([C@@H]2CCNC[C@H]2COc2ccc3c(c2)OCCO3)cc1,4 µg/mL,,MOLT-3,,IIIB,37%
O=C1N(Cc2ccc(CO)cc2)[C@H](Cc2ccccc2)[C@H](O)[C@@H](O)[C@@H](Cc2ccccc2)N1Cc1ccc(CO)cc1,0.25 µM,,PBMC,,A012D POST AZT,90%
O=C(NCc1ccc(F)cc1)c1nc(N2CCCCS2(=O)=O)c2cccnc2c1O,0.015 µM,,H9,,IIIB,95%
COc1ccc(CN[C@@H](C(=O)N[C@H](C(=O)NCc2nc3ccccc3[nH]2)C(C)C)[C@H](O)[C@H](Cc2ccccc2)NC(=O)[C@@H](NC(=O)OCc2ccccc2)C(C)(C)C)cc1,0.017 µM,clinical isolate,Primary T4 lymphocytes + T4,,HEM,90%
CCc1cc(NCc2nc3c(Cl)ccc(Cl)c3o2)c(=O)[nH]c1C,0.4 µM,,PBMC,RT-D67N K70R K103R K219Q,Clinical isolate (RT K103R D67N K70R K219Q),90%
CC(C)[C@H](NC(=O)c1ccc2ccccc2n1)C(=O)N[C@@H](Cc1ccccc1)[C@H](O)CN1CC[C@@H](OCc2ccncc2)C[C@H]1C(=O)NC(C)(C)C,0.014 µM,,H9,,HXB2,90%
O=c1[nH]cnc2c1ncn2[C@H]1CC[C@@H](CO)O1,10 µM,,MT-4,,IIIB,63%
C[C@H]1/C=C/[C@@]2(C)CC[C@@H](C(C)(C)O)[C@@H]2[C@@H](O)C[C@](C)(O)/C=C/C1,25 µM,,PBMC,,95BRSP007 R5X4,88%
CC(c1cc(=O)[nH]c(SC2CCCC2)n1)c1c(F)cccc1F,0.09 µM,,MT-4,,IIIB,99.9%
c1cc(CN2CCCNCCNCCCNCC2)ccc1CN1CCCNCCNCCCNCC1,0.1 µM,,PBMC,,SW5 CLADE C R5,6%
C#Cc1c(C(N)=O)ncn1[C@@H]1O[C@H](CO)[C@@H](O)[C@H]1O,0.5 µM,,PBL,,IIIB,0%
CC(C)C1=C[C@H](c2ccccc2)CC[C@H]1O,0.1 µM,,Jurkat cells,,IIIB,63.3%
Cc1ccnc2c1NC(=O)c1cccnc1N2C1CC1,0.1 µM,,CEM,,BRU,85%
CCC[C@@]1(CCc2ccccc2)CC(O)=C([C@H](CC)c2cccc(NS(=O)(=O)c3ccc(C(F)(F)F)cn3)c2)C(=O)O1,0.07 µM,,PBMC,,Isolate N. Amer 3,90%
O=C1O[C@H]2[C@@H]3OC(=O)c4cc(O)c(O)c(O)c4-c4c(cc(O)c(O)c4O)C(=O)OC[C@H]2O[C@@H](OC(=O)c2cc(O)c(O)c(O)c2)[C@@H]3OC(=O)c2cc(O)c(O)c3c2[C@@H]2C1=CC(=O)[C@](O)(O3)C2(O)O,2.5 µg/mL,,MAGI,,,67%
CC(C)=C1C=C(C(C)C)C(O)CC1,0.1 µM,,Jurkat cells,,IIIB,33.3%
CC[C@H](C)C(=O)O[C@H]1C[C@@H](C)C=C2C=C[C@H](C)[C@H](CC[C@@H]3C[C@@H](O)CC(=O)O3)[C@H]21,50 µM,,PBMC,,NL4-3,20%
O=C(O)c1cc(SSc2ccc([N+](=O)[O-])c(C(=O)O)c2)ccc1[N+](=O)[O-],2500 µM,,PBMC,,,77%
NC(=O)C[C@H](NC(=O)c1ccc2ccccc2n1)C(=O)N[C@@H](Cc1ccccc1)[C@H](O)CN[C@@H](Cc1ccccc1)C(=O)N[C@H]1c2ccccc2C[C@H]1O,0.0125 µM,,MT-4,,IIIB,95%
NC(N)=NCCC[C@@H](C=O)NC(=O)CNC(=O)[C@@H]1CCCN1,250 µg/mL,,HUT,,ELI,0%
Cc1cn([C@H]2C[C@H](N=[N+]=[N-])[C@@H](CO)O2)c(=O)[nH]c1=O,1 µM,,MT-4,,IIIB,100%
O=C(NCc1ccc(F)cc1)c1nc(N2CCCCS2(=O)=O)c2cccnc2c1O,0.008 µM,,PBMC,,1357 Primary R5 strain,95%
CC(=O)Nc1ccc(/C=C/c2ccc(N=C=S)cc2S(=O)(=O)O)c(S(=O)(=O)O)c1,100 µg/mL,,JM,,GB8,98.4%
CC(=O)N1CCC(C(=O)N(CCCN2CCC(Cc3ccc(C(N)=O)cc3)CC2)c2ccc(C)c(Cl)c2)CC1,0.012 µM,,PBMC,,KK R5 clinical isolate,90%
COC(=O)[C@@H]1C2CCC(C[C@@H]1OC(=O)c1ccccc1)N2C,25 µg/mL,,H9,,IIIB,<0%
Cc1cn([C@H]2C[C@H](N=[N+]=[N-])[C@@H](CO)O2)c(=O)[nH]c1=O,1 µM,,MOLT-4,,IIIB,95%
CC(C)(O)c1cccc(CN2C(=O)N(Cc3cccc(C(C)(C)O)c3)[C@H](Cc3ccccc3)[C@H](O)[C@@H](O)[C@H]2Cc2ccccc2)c1,0.0843 µM,,MT-2/MT-4 + MT-2,PR-V82F,HXB2,90%
O=Nc1c(-c2c(O)[nH]c3ccccc23)[nH]c2ccccc12,1 µM,,PBMC,,GP120-R305K P308H SCH-1 resistant,81.5%
Nc1ncnc2c1ncn2CCOCP(=O)(O)O,0.5 µM,,Macrophage + Monocytes/macrophages,,BaL,99%
CC(C)=CCOc1cc(NC(=S)c2ccoc2C)ccc1Cl,0.0166 µg/mL,,MT-2,,IIIB,70%
CN(C)CCC=C1c2ccccc2CCc2ccccc21,10 µg/mL,,MOLT-3,,IIIB,6%
C/C(=C(/CCO)SS/C(CCO)=C(\C)N(C=O)Cc1cnc(C)nc1N)N(C=O)Cc1cnc(C)nc1N,500 µM,,H9/HIV-1(MN) + H9,,MN,99%
Oc1ccc(/C=C/c2cc(O)cc(O)c2)cc1,5 µM,,PBMC,,ddI-resistant (RT K65R/L74V/M184V),20%
O=C1OC(C2OC(=O)c3cc(O)c(O)c(O)c3-c3c(O)c(O)c4oc(=O)c5c(c(O)c(O)c6oc(=O)c3c4c65)-c3c(cc(O)c(O)c3O)C(=O)OCC2O)C2OC(=O)c3c(c(O)c(O)c(O)c3C2O)-c2c1cc(O)c(O)c2O,5 µg/mL,,H9,,IIIB,63%
CC(C)(C)NC(=O)[C@@H]1C[C@@H]2CCCC[C@@H]2CN1C[C@@H](O)[C@H](Cc1ccccc1)NC(=O)[C@H](CC(N)=O)NC(=O)c1ccc2ccccc2n1,0.4 µM,,Macrophage + Monocytes/macrophages,,BaL,95%
CN=C1CN=C(c2ccc[nH]2)c2cc(Cl)ccc2N1,3 µM,,C8166,,RF,90%
Cc1nnc2n1-c1ccc(Cl)nc1CN(c1ccccc1)C2,10 µg/mL,,MT-4,,BRU,0%
CC(C)(C)NC(=O)[C@@H]1CN(Cc2cnc3occc3c2)CCN1C[C@@H](O)C[C@@H](Cc1ccccc1)C(=O)N[C@H]1c2ccccc2C[C@H]1O,0.025 µM,,MT-4,,,95%
CC(=O)[C@H]1CC[C@H]2[C@@H]3CCC4=CC(=O)CC[C@]4(C)[C@H]3CC[C@]12C,0.1 µM,,U1,,,40.5%
CC(C)CCCCCCCCCCCN(C)OP(=O)(O)N(CC(N)=O)P(=O)(O)OC1C(OC[C@H]2O[C@@H](n3ccc(=O)[nH]c3=O)[C@H](O)[C@@H]2O)=C(CO)C(O)C1O,0.8 µM,,PBMC,,IIIB,80%
CC(C)(C)NC(=O)[C@@H]1CCCN1C(=O)[C@@H](O)[C@H](Cc1ccccc1)NC(=O)[C@H](CC(N)=O)NC(=O)c1cnc2ccccc2n1,0.5 µM,,CEM,,IIIB,79%
NC(N)=NCCC[C@H](NC(=O)[C@@H](N)Cc1ccc(O)cc1)C(=O)NCC(=O)N1CCC[C@H]1C(=O)NCC=O,250 µg/mL,,HUT,,ELI,44.8%
CCC(C1=C(O)CC(CC)(c2cccc(NS(=O)(=O)c3ccc(C#N)cn3)c2)OC1=O)c1cccc(NS(=O)(=O)c2ccc(C#N)cn2)c1,3 µM,,H9,,IIIB,0%
NC(N)=NCCC[C@H](N)C(=O)NCC(=O)N1CCC[C@H]1C(=O)NCC=O,25 µg/mL,,HUT,,ELI,0%
CCC(c1cc(=O)[nH]c(SC2CCCC2)n1)c1c(F)cccc1F,0.3 µM,,MT-4,,IIIB,99.9%
Cc1cn([C@H]2C[C@H](N=[N+]=[N-])[C@@H](CO)O2)c(=O)[nH]c1=O,0.0039 µM,,MT-4,,IIIB,55.06%
NCC(=O)N1CCC[C@H]1C(=O)NCC=O,250 µg/mL,,H9,,IIIB,98.5%
Cc1cn([C@H]2C[C@H](N=[N+]=[N-])[C@@H](CO)O2)c(=O)[nH]c1=O,0.08 µg/mL,,H9,,IIIB,0%
CC[C@H](C)C=C(C)/C=C/C1=CC2=C(Cl)C(=O)[C@](C)(O)[C@H](CC(C)=O)C2=CO1,25 µM,,PBL,,,~90%
Cc1cn([C@H]2C[C@H](N=[N+]=[N-])[C@@H](CO)O2)c(=O)[nH]c1=O,0.5 µM,7 d,HUT/CCR5 + HUT,,BaL,98%
CCC[C@@]1(CCc2ccccc2)CC(O)=C([C@H](CC)c2cccc(NS(=O)(=O)c3ccc(C(F)(F)F)cn3)c2)C(=O)O1,0.33 µM,,PBMC,,Isolate 301-6X ritonavir-resistant,90%
Cn1cnc2c(NCc3ccccc3)nc(NCCO)nc21,10 µM,,PBMC,,THA/92/00 NSI CLADE E,10%
c1ncc2[nH]cnc2n1,44 µM,,MOLT4 + MOLT-4,,IIIB,>25%
Cc1c(C(C)c2c(F)cccc2F)nc(SC2CCCC2)[nH]c1=O,0.033 µM,,MT-4,,IIIB,99.9%
[N-]=[N+]=N[C@@H]1[C@H](O)[C@@H](CO)O[C@H]1n1ccc(N)nc1=O,2 µM,,PBMC,,IIIB,40%
Cc1ccc(-c2ccc3c(c2)C=C(C(=O)Nc2ccc(C[N+](C)(C)C4CCOCC4)cc2)CCC3)cc1,0.0075 µM,,PBMC,,HHA,90%
Cc1cn([C@H]2C[C@H](N=[N+]=[N-])[C@@H](CO)O2)c(=O)[nH]c1=O,3.7 µM,,PBMC/HIV-1 + PBMC,,Primary clinical isolate Rome,78%
O=C(OC[C@H]1O[C@@H](OC(=O)c2cc(O)c(O)c(O)c2)[C@H](O)[C@@H](OC(=O)c2cc(O)c(O)c(O)c2)[C@@H]1O)c1cc(O)c(O)c(O)c1,50 µg/mL,,MOLT-3,,IIIB,93%
C[C@H](Cn1cnc2c(N)nc(N)nc21)OCP(=O)(O)O,0.5 µM,,Macrophage + Monocytes/macrophages,,BaL,99%
Fc1ccc([C@H]2CCNC[C@@H]2COc2ccc3c(c2)OCCO3)cc1,4 µg/mL,,MOLT-3,,IIIB,30%
Cc1cn([C@H]2C[C@H](N=[N+]=[N-])[C@@H](CO)O2)c(=O)[nH]c1=O,10 µM,,MT-4,,EVK,96.36%
Nc1ncnc2c1ncn2[C@H]1CC[C@@H](CO)O1,10 µM,,CEM,,LAV,90%
c1cc(CN2CCCNCCNCCCNCC2)ccc1CN1CCCNCCNCCCNCC1,0.1 µM,,U87 (CD4+ CXCR4+) + U87,,HE R5X4,92%
CC(C)Sc1nc(Cc2c(F)cccc2F)cc(=O)[nH]1,0.19 µM,,MT-4,,IIIB,99.9%
NC(=O)NO,50 µM,,PBMC,,IIIB,50%
COc1ccc(OC[C@@H]2CNCC[C@H]2c2ccc(F)cc2)cc1,4 µg/mL,,MOLT-3,,IIIB,7%
Nc1nc(Br)nc2c1ncn2[C@H]1CC[C@@H](CO)O1,10 µM,,CEM,,LAV,90%
O=c1[nH]cnc2c1ncn2[C@H]1CC[C@@H](CO)O1,7.5 µM,,PBMC,,IIIB,88%
C[n+]1cnc(N)c2[nH]cnc21,426 µM,,MOLT4 + MOLT-4,,IIIB,>25%
O=C(CO)N[C@@H]([C@@H](O)[C@H](O)[C@H](O)CO)[C@@H](O)C(=O)C(=O)O,6.2 µg/mL,,PBMC,,MN,99.9%
COc1ccc(CN[C@@H](C(=O)N[C@H]2c3ccccc3C[C@H]2O)[C@H](O)[C@H](Cc2ccccc2)NC(=O)[C@@H](NC(=O)OCc2ccccc2)C(C)(C)C)cc1,0.11 µM,,Primary T4 cells + T4,,A018A,90%